Results of unrelated studies side by side (data: NIAID ChemDB).

Shared fields: enzyme or target tests; species: HIV; protein: Reverse transcriptase; endpoint: IC50

Conditions beyond the fields shown may differ between rows.

| structure | strain | changes | read by | result |
|---|---|---|---|---|
| Cc1occc1C(=S)Nc1ccc(Cl)c(/C=N/OC(C)(C)C)c1 | - | - | - | 6.2 µM |
| Nc1nc2c(ncn2[C@H]2CC[C@@H](COP(=O)(O)OP(=O)(O)OP(=O)(O)O)O2)c(=O)[nH]1 | - | RT-E138K(P66 ONLY) | - | 0.028 µM |
| Nc1ncnc2c1ncn2[C@H]1CC[C@@H](COP(=O)(O)OP(=O)(O)OP(=O)(O)O)O1 | - | RT-K65R | - | 29.9 µM |
| O=C1c2ccccc2C2(c3ccccc3)SCCN12 | - | RT-Y188L | ELISA | 140 µM |
| O=c1[nH]cnc2c1ncn2[C@H]1CC[C@@H](CO)O1 | - | RT-L74V M184V | RT activity | 4.4 µM |
| Nc1nc2c(ncn2[C@H]2CC[C@@H](COP(=O)(O)OP(=O)(O)OP(=O)(O)O)O2)c(=O)[nH]1 | - | RT-N137Y | nucleotide incorporation / radiometric | 1.2 µM |
| CCc1c([Se]c2ccccn2)n(COCc2ccccc2)c(=O)[nH]c1=O | - | RT-V90A | RT activity | 0.07 µM |
| CC(=O)c1ccc(C)cc1NC(C(N)=O)c1c(Cl)cccc1Cl | - | RT-V106A P225H | RT activity | 15 µM |
| Cc1c(C(C)c2c(F)cccc2F)nc(NC2CCCC2)[nH]c1=O | - | RT-L100I | nucleotide incorporation / radiometric | 0.5 µM |
| C[C@H](Cn1cnc2c(N)ncnc21)OCP(=O)(O)OP(=O)(O)OP(=O)(O)O | - | RT-K65R | - | 0.8 µM |
| CC(C)=CCN1Cc2cccc3[nH]c(=S)n(c23)C[C@@H]1C | - | - | nucleotide incorporation | 9.83 µM |
| Cc1cc(C)cc(Sc2c(C(C)C)c(=O)[nH]c(=S)n2COCCO)c1 | - | RT-E138K | nucleotide incorporation | 29.9 µM |
| C#C[C@]1(COP(=O)(O)OP(=O)(O)OP(=O)(O)O)CC[C@@H](n2ccc(N)nc2=O)O1 | - | - | nucleotide incorporation / radiometric | 0.2 µM |
| COc1ccccc1N1CCN(C(=O)c2cc3cc4c(cc3[nH]2)OCO4)CC1 | - | RT-Y181C P236L | - | >50 µM |
| Cc1cn([C@H]2C=C[C@@H](COP(=O)(O)OP(=O)(O)OP(=O)(O)O)O2)c(=O)[nH]c1=O | - | RT-N137Q | nucleotide incorporation / radiometric | 0.24 µM |
| Cc1cn([C@H]2C=C[C@]3(COP(=O)(O)OP(=O)(O)OP(=O)(O)O)C[C@H]23)c(=O)[nH]c1=O | - | - | nucleotide incorporation / radiometric | >0.5 µM |
| Cc1cn([C@@H]2O[C@H](CO[Si](C)(C)C(C)(C)C)C3(OS(=O)(=O)C=C3N)[C@H]2O[Si](C)(C)C(C)(C)C)c(=O)n(C)c1=O | - | RT-V106A P225H | RT activity | >500 µM |
| CC[C@]1(c2ccccc2)Oc2cccnc2-n2cccc2C1=O | MDR | RT-M41L K103N T215Y | nucleotide incorporation / radiometric | 3.5 µM |
| CC(C)=CCN1Cc2cccc3[nH]c(=S)n(c23)C[C@@H]1C | - | RT-E138K(P51 ONLY) | - | 0.76 µM |
| C/C=C/CSc1cc(NC(=S)c2ccsc2C)ccc1Cl | - | - | - | 8 µM |
| CC(C)Nc1cccnc1N1CCN(C(=O)c2cc3cc4c(cc3[nH]2)OCO4)CC1 | - | RT-Y181C P236L | - | >50 µM |
| NS(=O)(=O)c1ccc(CCNC(=O)Cc2cccs2)cc1 | - | - | nucleotide incorporation | 2 µM |
| c1ccc(C2SCc3nc4ccccc4n32)cc1 | - | RT-K103N Y181I Y188L | - | >50 µM |
| CC(C)Nc1cccnc1N1CCN(C(=O)c2cc3ccccc3[nH]2)CC1 | - | RT-Y181I | nucleotide incorporation | 87 µM |
| CC(C)=CCN1Cc2cccc3[nH]c(=S)n(c23)C[C@@H]1C | - | RT-V90A | RT activity | 0.6 µM |
| Cc1cc(C)cc([C@]23SCCN2C(=O)c2ccccc23)c1 | - | RT-Y188L | ELISA | 9.8 µM |
| Cc1cn([C@@H]2O[C@H](CO[Si](C)(C)C(C)(C)C)C3(OS(=O)(=O)C=C3N)[C@H]2O[Si](C)(C)C(C)(C)C)c(=O)n(C)c1=O | - | RT-E138K | nucleotide incorporation | >750 µM |
| Nc1ccn([C@H]2CC[C@@H](COP(=O)(O)OP(=O)(O)OP(=O)(O)O)O2)c(=O)n1 | - | RT-K65R S68G | - | 12.6 µM |
| CO[P@](=O)(c1cc(C)cc(/C=C/C#N)c1)c1c(C(N)=O)[nH]c2ccc(Cl)cc12 | - | Y181C | - | 0.361 µM |
| COc1ccc2c(c1)N(C(=O)OC(C)C)[C@@H](CSC)C(=S)N2 | - | RT-D67N K70R T215F K219Q | RT activity | 0.006 µg/mL |
| Nc1ncnc2c1ncn2[C@@H]1O[C@H](OCP(=O)(O)OP(=O)(O)OP(=O)(O)O)C=C1F | - | - | - | 2.3 µM |

Repeating the final 5 entries:

structure	strain	changes	read by	result
Cc1cn([C@@H]2O[C@H](CO[Si](C)(C)C(C)(C)C)C3(OS(=O)(=O)C=C3N)[C@H]2O[Si](C)(C)C(C)(C)C)c(=O)n(C)c1=O	-	RT-E138K	nucleotide incorporation	>750 µM
Nc1ccn([C@H]2CC[C@@H](COP(=O)(O)OP(=O)(O)OP(=O)(O)O)O2)c(=O)n1	-	RT-K65R S68G	-	12.6 µM
CO[P@](=O)(c1cc(C)cc(/C=C/C#N)c1)c1c(C(N)=O)[nH]c2ccc(Cl)cc12	-	Y181C	-	0.361 µM
COc1ccc2c(c1)N(C(=O)OC(C)C)[C@@H](CSC)C(=S)N2	-	RT-D67N K70R T215F K219Q	RT activity	0.006 µg/mL
Nc1ncnc2c1ncn2[C@@H]1O[C@H](OCP(=O)(O)OP(=O)(O)OP(=O)(O)O)C=C1F	-	-	-	2.3 µM

ICn: concentration for n% inhibition. An empty or dashed field is not shown.